The exact form of at least one protein or probe is not confirmed. At least one result comes from cells or an extract, where the contact may be indirect. For some of these results: Where a protein sequence is shown, tags need not be part of it.
Columns and labels:
[1] = molecular target: myc-E7FL (Human papillomavirus type 16) (UniProt P03129); assay: EMSA; conditions: C33A nuclear extract; 5'-biotin; EMSA buffer, pH and temperature not given; protein in an extract; residues 1-98; protein details: myc; label: biotin
[2] = molecular target: T1, myc-E7ΔN (Human papillomavirus type 16) (UniProt P03129); assay: EMSA; conditions: C33A nuclear extract; 5'-biotin; EMSA buffer, pH and temperature not given; protein in an extract; residues 28-98; protein details: myc; label: biotin
T1 sequence (looked up): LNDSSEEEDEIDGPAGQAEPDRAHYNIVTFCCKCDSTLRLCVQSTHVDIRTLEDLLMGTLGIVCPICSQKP

Q: Which results are given for “AGCTGCCACCCCGCCCCCATGCCAT (double strand) [MALAT1 promoter probe2]”?
A: binding result [1]: binds; binding result [2]: binds

Q: Does “CAGGCGTTAGGGCGGGGCGCGCGTGC (double strand) [MALAT1 promoter probe1]” bind [1]?
A: Result: binds

Q: Does “CAGGCGTTAGGGCGGGGCGCGCGTGC (double strand) [MALAT1 promoter probe1]” bind [2]?
A: Result: binds
